System: HEK293T, MM1.S, and MDA-MB-231 cells
Assay: Cell viability across HEK293T, MM1.S and MDA-MB-231
Settings: Homo sapiens, 72 h, read-out: cell viability IC50 values (range over cell lines)

**Q.** For `CC[C@@H]1C(=O)N(C)c2cnc(Nc3ccc(C(=O)NC4CCN(C)CC4)cc3OC)nc2N1C1CCCC1` [BI-2536], which IC50 is on record?
**A.** 1 to 3.5 nM

Reference: paper PMC6200136 (Journal of medicinal chemistry, 2017)
